A mixed list of measured activities; the numbers were collected in NIAID ChemDB.

All rows: whole-cell or culture tests

Percent inhibition refers to the dose given; in toxicity tests it is the harm to the cells. A number after MIC or MFC names an inhibition level or a share of isolates. Fold resistance has wild type as its base. Zones are inhibition diameters on agar. ECn: concentration that inhibits the pathogen or its effect by n%. An empty or dashed field is not shown. Lines come from different laboratories, so protocols vary.

structure,organism,cell line,setting,mutations,read-out,read by,dose,strain or isolate,result
COC(=O)C(C)NP(=O)(OC[C@@H]1C/C1=C\n1cc(N)c(=O)[nH]c1=O)Oc1ccccc1,Epstein-Barr virus,DAUDI,-,-,EC50,ELISA,-,-,14.4 µM
OC[C@H]1O[C@@H](n2cnc3c(NC4CC4)nc(Cl)nc32)C[C@@H]1O,Maedi-visna virus,-,-,-,EC50,cytopathic effect,-,-,0.15 µM
COc1c(N2CCNC(C)C2)c(F)cc2c(=O)c(C(=O)O)cn(C3CC3)c12,Klebsiella pneumoniae,-,-,-,MIC90,-,-,58 strains,0.5 µg/mL
Nc1cnn([C@@H]2O[C@H](CO)[C@@H](O)[C@H]2O)c(=O)n1,Adenovirus,HEP-2,-,-,inhibition,-,16 µg/mL,TYPE 5,100%
Nc1nc2c(ncn2CCC(CO)CO)c(=O)[nH]1,Equine herpesvirus 1,RK-13,-,-,EC50,plaque count,-,QUAI HAIS,1.6 µg/mL
CCC(=O)C(CCCCCCOc1ccc(OC)cc1Cl)C(=O)CC,Mouse cytomegalovirus,MEF,-,-,inhibition,plaque count,4 µg/mL,SMITH,70%
CCC(CC)O[C@@H]1C=C(C(=O)O)C[C@H](N)[C@H]1NC(C)=O,Influenza A virus,MDCK,-,-,EC50,-,-,H1N1 A/Bayern/09/95,2.7 µM
CCC(=O)C(CCCCCCOc1ccc(OC)cc1Cl)C(=O)CC,Equine herpesvirus 4,-,-,-,EC50,virus yield,-,-,<100 µg/mL
O=C(N[C@@H](C(=O)N1CCC[C@H]1c1ncc(-c2ccc(-c3ccc(-c4cnc([C@@H]5CCCN5C(=O)[C@H](NC(=O)C5CC5)c5ccccc5)s4)cc3)cc2)s1)c1ccccc1)C1CC1,Hepatitis C virus,Huh7.5,-,P58L,fold resistance,luciferase / reporter gene,-,genotype 1b,376
O=S(=O)(O)c1ccc(N=Nc2c(O)ccc3cc(S(=O)(=O)O)ccc23)cc1,Adenovirus,Human embryonic lung cells,-,-,inhibition,cytopathic effect,5 µg/mL,TYPE 3,0%
Cc1cccc(N=Nc2c(C)[nH]n(C(=O)c3sc4ccc(Cl)cc4c3Cl)c2=O)c1C,Pseudomonas aeruginosa,-,-,-,zone,agar diffusion / agar,40 µg/mL,ATCC 27853,16 mm
Nc1ncnc2c1ncn2C[C@@H](CO)OCP(=O)(O)O,Varicella zoster virus,HEL,-,-,EC50,cytopathic effect,-,Oka CF1368-resistant,0.043 µM
C[C@@]1(O)[C@H](O)[C@@H](COP(=O)(O)OP(=O)(O)OP(=O)(O)O)O[C@H]1n1ccc2c(N)ncnc21,Dengue virus,VERO,-,-,EC50,neutral red,-,TYPE 2,15 µM
COc1ccc(Cc2cn(Cc3ccc(O)cc3)c(=N)n2C)cc1,Saccharomyces cerevisiae,-,-,-,MIC,-,-,ATCC 18824,>100 µg/mL
COC(=O)C(C)NP(=O)(OC[C@@H]1C/C1=C/n1cc(N)c(=O)[nH]c1=O)Oc1ccccc1,Epstein-Barr virus,DAUDI,-,-,EC50,ELISA,-,-,0.65 µM
OC[C@@H]1CC[C@H](n2cnc3c(NC4CC4)nc(Cl)nc32)O1,Maedi-visna virus,-,-,-,EC50,cytopathic effect,-,-,0.15 µM
CC(=O)Oc1cccc2c1C(=O)c1c(cnn1C)C2=O,Cryptosporidium parvum,-,-,-,inhibition,-,10 µM,-,38%
CC(C)CC(NC(=O)Oc1ccccc1)C(=O)Nc1cccc(Cn2cnc3c(N(C)C)ncnc32)c1,Coronavirus,M-HELA,-,-,EC50,plaque count,-,-,>50 µM
Cc1cc(-c2ccc(N=Nc3ccc4c(S(=O)(=O)O)cc(S(=O)(=O)O)c(N)c4c3O)c(C)c2)ccc1N=Nc1ccc2c(S(=O)(=O)O)cc(S(=O)(=O)O)c(N)c2c1O,Adenovirus,Human embryonic lung cells,-,-,inhibition,cytopathic effect,50 µg/mL,TYPE 3,0%
NCC(=O)Nc1ccc(Cn2cnc3c(N)ncnc32)cc1,Coronavirus,M-HELA,-,-,EC50,plaque count,-,-,>50 µM
C=C[C@H]1CN2CC[C@H]1C[C@H]2[C@H](O)c1ccnc2ccc(OC)cc12,Plasmodium falciparum,-,48 h,-,inhibition,-,0.016 µg/mL,W2,73%
CCO/C(=N/NC(=O)OC)C(C)(O)c1ccc(Cl)c(C)c1,Plasmodium falciparum,-,-,-,inhibition,hypoxanthine uptake / radiometric,5 µM,3D7,72%
CC(C)CC(N)C(=O)Nc1ccc(Cn2cnc3c(N)ncnc32)cc1,Coronavirus,M-HELA,-,-,EC50,plaque count,-,-,>50 µM
O=C(O)P(=O)(O)O,Cytomegalovirus,HFF,-,-,inhibition,hybridisation,400 µM,AD169,96.1%
O=C1c2cn[nH]c2C(=O)c2c(O)ccc(O)c21,Cryptosporidium parvum,-,-,-,inhibition,-,25 µM,-,100%
O=S(=O)([O-])c1cc(S(=O)(=O)[O-])c2cc(NS(=O)(=O)c3ccccc3)ccc2c1,Adenovirus,Human amnion AV3 cells,-,-,inhibition,cytopathic effect,5 µg/mL,TYPE 3,0%
Nc1cn(C=C2C[C@H]2CO)c(=O)[nH]c1=O,Epstein-Barr virus,H-1,-,-,EC50,hybridisation,-,-,>50 µM
Cc1ccc(C(=O)Nc2ccc(S(=O)(=O)O)c3cc(S(=O)(=O)O)cc(S(=O)(=O)O)c23)cc1NC(=O)c1cccc(NC(=O)Nc2cccc(C(=O)Nc3cc(C(=O)Nc4ccc(S(=O)(=O)O)c5cc(S(=O)(=O)O)cc(S(=O)(=O)O)c45)ccc3C)c2)c1,Herpes simplex virus,Human amnion AV3 cells,-,-,inhibition,cytopathic effect,50 µg/mL,-,100%
COc1c(CN(C)C)cccc1C1OC(c2ccncc2)=NN1C(C)=Nc1cccc(F)c1,Pseudomonas aeruginosa,-,-,-,MIC,-,-,MTCC 2453,12.5 µg/mL
Cc1cc(-c2ccc(N=Nc3c(S(=O)(=O)O)cc4cc(S(=O)(=O)O)cc(N)c4c3O)c(C)c2)ccc1N=Nc1c(S(=O)(=O)O)cc2cc(S(=O)(=O)O)cc(N)c2c1O,Herpes simplex virus,Human conjunctiva cells,-,-,inhibition,cytopathic effect,10 µg/mL,-,100%
CCCN(CCC)CCSc1nnc2c(n1)[nH]c1ccccc12,Bovine viral diarrhea virus,MDBK,-,-,EC50,cytopathic effect,-,NADL (TYPE 1),0.03 µM
Nc1ccn(C[C@@H](CO)OCP(=O)(O)O)c(=O)n1,Varicella zoster virus,HEL,-,-,EC50,cytopathic effect,-,Oka CF1742-resistant,0.29 µM
CC(=O)N1N=C(c2sc3ccc(Cl)cc3c2Cl)OC1c1ccc(O)cc1,Pseudomonas aeruginosa,-,-,-,zone,agar diffusion / agar,40 µg/mL,ATCC 27853,12 mm
Nc1c(S(=O)(=O)O)cc2cc(S(=O)(=O)O)cc(O)c2c1O,Adenovirus,Human amnion AV3 cells,-,-,inhibition,cytopathic effect,5 µg/mL,TYPE 3,0%
Nc1ncnc2c1ncn2[C@@H]1C[C@H](NC=O)[C@@H](O)[C@H]1O,West Nile virus,HFF,-,-,EC50,-,-,-,>100 µg/mL
Cc1cccc(C)c1N=Nc1c(C)[nH]n(C(=O)c2sc3ccc(Cl)cc3c2Cl)c1=O,Pseudomonas aeruginosa,-,-,-,zone,agar diffusion / agar,40 µg/mL,ATCC 27853,12 mm
O=S(=O)(O)c1ccc2cc(O)c(S(=O)(=O)O)cc2c1,Adenovirus,Human amnion AV3 cells,-,-,inhibition,cytopathic effect,5 µg/mL,TYPE 3,0%
CCn1nc(C)c2c1C(=O)c1ccccc1C2=O,Cryptosporidium parvum,-,-,-,inhibition,-,10 µM,-,<10%
Nc1ncnc2c1ncn2Cc1cccc(NC(=O)C(N)Cc2ccccc2)c1,Coronavirus,M-HELA,-,-,EC50,plaque count,-,-,>50 µM
Cn1cc2c(n1)C(=O)c1cc3ccccc3c(O)c1C2=O,Cryptosporidium parvum,-,-,-,inhibition,-,100 µM,-,<10%
Nc1nc2c(ccn2[C@@H]2C[C@H](CO)[C@@H](O)[C@@H]2O)c(=O)[nH]1,Parainfluenza virus,-,-,-,MIC,-,-,-,>100 µg/mL
CCO/C(=N/NC(=O)OC(C)(C)C)C(C)(O)c1ccc(Cl)c(Cl)c1,Plasmodium falciparum,-,-,-,inhibition,hypoxanthine uptake / radiometric,5 µM,3D7,75%
CC(=O)N1N=C(c2sc3ccc(Cl)cc3c2Cl)OC1c1ccccc1[N+](=O)[O-],Pseudomonas aeruginosa,-,-,-,zone,agar diffusion / agar,40 µg/mL,ATCC 27853,26 mm
C=CCc1ccc(O)c(OC)c1,Candida tropicalis,-,-,-,MIC90,turbidity,-,2467,490 µg/mL
Nc1nc2c(ncn2COC(CO)CO)c(=O)[nH]1,Herpes simplex virus 1,WI-38,-,-,inhibition,plaque count,16 µM,SC16 (mutant TR7),90%
O=C1c2ccccc2C(=O)c2[nH]ncc21,Cryptosporidium parvum,-,-,-,EC50,-,-,-,>100 µM
COC(=O)[C@H](C)NC(=O)[C@H](Cc1ccc(O)cc1)NC(=O)[C@@H]1CCCN1C(=O)[C@H](CC(C)C)NC(=O)CNC(=O)[C@@H]1CCCN1C(=O)[C@H](CC(=O)O)NC(C)(C)C,Pseudomonas aeruginosa,-,-,-,zone,-,6 µg/mL,-,24 mm
Nc1ncnc2c1ncn2Cc1ccc(NC(=O)C(N)Cc2ccccc2)cc1,Coronavirus,M-HELA,-,-,EC50,plaque count,-,-,>50 µM
CC(C)CS[C@@H]1C[C@H](n2cnc3c(N)ncnc32)[C@@H](O)[C@H]1O,Cytomegalovirus,HEL,-,-,EC50,cytopathic effect,-,AD169,>200 µg/mL
CC(=O)OC[C@H]1O[C@@H](n2ncc(=O)[nH]c2=O)[C@H](OC(C)=O)[C@@H]1OC(C)=O,Dengue virus,LLC-MK2,-,-,EC50,plaque count,-,Caribbean (type 4),<1 µg/mL
O=S(=O)([O-])c1ccc(O)c2ccccc12,Herpes simplex virus,Human amnion AV3 cells,-,-,inhibition,cytopathic effect,50 µg/mL,-,0%
C[C@@H]1O[C@@H](O[C@@H]2Cc3c(O)cc(O)cc3O[C@@H]2c2ccc(O)c(O)c2)[C@H](O)[C@H](O)[C@H]1O,Hepatitis B virus,HepG2.2.15,-,-,inhibition,ELISA / antigen,30 µM,-,71.3%
Nc1nc2c(ncn2COC(CO)CO)c(=O)[nH]1,Varicella zoster virus,HEL,-,-,EC50,cytopathic effect,-,Oka CF1368-resistant,2.6 µM
CCCO/C(=N/NC(=O)OC(C)(C)C)C(C)(O)c1ccc(Cl)c(Cl)c1,Plasmodium falciparum,-,-,-,inhibition,hypoxanthine uptake / radiometric,5 µM,3D7,43%
O=S(=O)(O)c1cc(O)c2c(O)cc(S(=O)(=O)O)cc2c1,Adenovirus,Human amnion AV3 cells,-,-,inhibition,cytopathic effect,10 µg/mL,TYPE 3,40%
O=C(Nc1ccc(NC(=S)Nc2cc(C(F)(F)F)cc(C(F)(F)F)c2)cc1)c1csnn1,Rat cytomegalovirus,HFF,-,-,EC50,virus yield,-,-,>20 µM
O=C(O)CP(=O)(O)O,Varicella zoster virus,HEL,-,-,EC50,cytopathic effect,-,Oka CF1743-resistant,28.8 µM
COc1ccc2nc(Cl)c(C3OC(c4sc5ccc(Cl)cc5c4Cl)=NN3C(C)=O)cc2c1,Pseudomonas aeruginosa,-,-,-,zone,agar diffusion / agar,40 µg/mL,ATCC 27853,14 mm

For reference, 5 entries again:

structure	organism	cell line	setting	mutations	read-out	read by	dose	strain or isolate	result
COc1ccc(Cc2cn(Cc3ccc(O)cc3)c(=N)n2C)cc1	Saccharomyces cerevisiae	-	-	-	MIC	-	-	ATCC 18824	>100 µg/mL
Nc1c(S(=O)(=O)O)cc2cc(S(=O)(=O)O)cc(O)c2c1O	Adenovirus	Human amnion AV3 cells	-	-	inhibition	cytopathic effect	5 µg/mL	TYPE 3	0%
COC(=O)C(C)NP(=O)(OC[C@@H]1C/C1=C/n1cc(N)c(=O)[nH]c1=O)Oc1ccccc1	Epstein-Barr virus	DAUDI	-	-	EC50	ELISA	-	-	0.65 µM
Nc1nc2c(ncn2COC(CO)CO)c(=O)[nH]1	Varicella zoster virus	HEL	-	-	EC50	cytopathic effect	-	Oka CF1368-resistant	2.6 µM
Cc1cc(-c2ccc(N=Nc3ccc4c(S(=O)(=O)O)cc(S(=O)(=O)O)c(N)c4c3O)c(C)c2)ccc1N=Nc1ccc2c(S(=O)(=O)O)cc(S(=O)(=O)O)c(N)c2c1O	Adenovirus	Human embryonic lung cells	-	-	inhibition	cytopathic effect	50 µg/mL	TYPE 3	0%